Results of unrelated studies side by side (data: NIAID ChemDB).

Shared fields: whole-cell or culture tests; species: Varicella zoster virus; read-out: EC50

ECn is the concentration giving n% inhibition of infection, replication or growth. Conditions beyond the fields shown may differ between rows. Blank or dashed fields: not listed here.

SMILES	method	strain or isolate	cell line	result
Cc1cn([C@@H]2O[C@H](CO)[C@@H](O)[C@@H]2O)c(=O)[nH]c1=O	plaque count	Kawaguchi acyclovir-resistant mutant A8	-	0.0072 µg/mL
O=c1[nH]c(=O)n([C@@H]2O[C@H](CO)[C@@H](O)[C@@H]2O)cc1/C=C/Br	plaque count	YS-W1 H13	HEL	0.0005 µg/mL
C=Cc1cn([C@@H]2O[C@H](CO)[C@@H](O)[C@@H]2O)c(=S)nc1N	plaque count	HOSEN (TK+)	MRC-5	253.8 µM
O=C(O)P(=O)(O)O	cytopathic effect	Clinical isolate VZV-12	HEL	93.6 µM
CC#Cc1cn([C@@H]2O[C@H](CO)[C@@H](O)[C@@H]2O)c(=O)[nH]c1=O	plaque count	YS/R (TK-)	HEL	>177 µM
COC(=O)C(C)(C)NP(=O)(OC[C@H]1O[C@@H](n2cc(/C=C/Br)c(=O)[nH]c2=O)C[C@@H]1O)Oc1ccccc1	cytopathic effect	07 (TK-)	HEL	>200 µM
Nc1nc2c(ncn2CCCC(O)CF)c(=O)[nH]1	cytopathic effect	YS/R (TK-)	HEL	>50 µg/mL
Cn1cc(C(=O)NCc2ccc(Cl)cc2)c(=O)c2cc(CN3CCOCC3)ccc21	plaque count	RA varicella isolate	HFF	0.3 µM
O=c1[nH]c(=O)n([C@H]2C[C@H](O)[C@@H](CO)O2)cc1/C=C/Br	cytopathic effect	YS (TK-)	HEL	96 µM
CCCCc1ccc(-c2cc3cn(C4CC[C@@H](CO)O4)c(=O)nc3o2)cc1	plaque count	07/1 (TK-)	HEL	>5 µM
CCOC(=O)/C=C/C=C/[C@H]1O[C@@H](n2ccc(=O)[nH]c2=O)[C@H](O)[C@@H]1O	-	YS/R	HEL	>120 µM
O=C(O)CP(=O)(O)O	cytopathic effect	Oka penciclovir-resistant/B	HEL	123.5 µM
CCCc1cn([C@H]2C[C@H](O)[C@@H](CO)O2)c(=S)[nH]c1=O	plaque count	CAQU (TK+)	MRC-5	3.1 µM
Nc1ccn([C@@H]2O[C@H](CO)[C@@H](O)[C@@H]2O)c(=O)n1	plaque count	OKA-H12	HEL	0.13 µg/mL
O=c1[nH]c(=S)n([C@@H]2O[C@H](CO)[C@@H](O)[C@@H]2O)cc1CCO	plaque count	Kanno-Kohmura (TK-)	MRC-5	>244.8 µM
Cc1c(Br)cc(Br)c2ncc(CSCc3cccc(C(F)(F)F)c3)n12	plaque count	OKA (TK+)	HEL	>5 µg/mL
CC1(C)[C@H](CCO)C[C@@H]1n1cnc2c(Cl)ncnc21	plaque count	YS/R (TK-)	-	>50 µg/mL
Nc1nc2c(ncn2COC(CO)CO)c(=O)[nH]1	plaque count	07/1 (TK-)	HEL	12.2 µM
Nc1ccn(C(CF)CCCO)c(=O)n1	cytopathic effect	YS/R (TK-)	HEL	>50 µg/mL
COc1ccc(CSCc2cnc3c(Br)cc(Br)c(C)n23)cc1	plaque count	07/1 (TK-)	HEL	>20 µg/mL
CCCCCCc1ccc(-c2cc3cn(C4CC[C@@H](CO)O4)c(=O)nc3o2)cc1	plaque count	OKA (TK+)	HEL	4 µM
Cc1c(Br)cc(Br)c2ncc(CSCc3ccccc3)n12	plaque count	OKA (TK+)	HEL	>50 µg/mL
Nc1ncnc2c1ncn2C[C@@H](CO)OCP(=O)(O)O	plaque count	13 isolates	HEL	0.14 µM
CC1(C)[C@H](CCO)C[C@@H]1n1cnc2c(=O)[nH]cnc21	plaque count	OKA (TK+)	-	>50 µg/mL
Cc1c(Br)cc(Br)c2ncc(CSCc3ccccc3F)n12	plaque count	YS/R (TK-)	HEL	>5 µg/mL
Nc1nc(F)nc2c1ncn2[C@@H]1C=C(CO)[C@@H](O)[C@H]1O	cytopathic effect	07/1 YS/R (TK-)	HEL	2 µg/mL
Cc1c(Br)cc(Br)c2ncc(CSCCCc3ccccc3)n12	plaque count	OKA (TK+)	HEL	24 µg/mL
CCCCCc1ccc(-c2cc3cn(C4CC[C@@H](CO)O4)c(=O)nc3o2)cc1	plaque count	OKA (TK+)	HEL	2.5 µM
O=c1[nH]c(=O)n([C@@H]2O[C@H](CO)[C@@H](O)[C@@H]2O)cc1/C=C/Cl	plaque count	Kawaguchi acyclovir-resistant mutant A6	-	0.000435 µg/mL
O=C(NCc1ccc(Cl)cc1)c1c[nH]c2ccc(C#CCO)cc2c1=O	plaque count	GEI	-	0.2 µM
O=C(O)/C=C/c1cn([C@@H]2O[C@H](CO)[C@@H](O)[C@@H]2O)c(=S)[nH]c1=O	plaque count	CAQU (TK+)	MRC-5	40.5 µM
Nc1nc(=O)n([C@H]2C[C@H](O)[C@@H](CO)O2)cc1/C=C/Cl	plaque count	YS/R (TK-)	HEL	>145 µM
Nc1nc2c(ncn2CCC(CO)CO)c(=O)[nH]1	cytopathic effect	Clinical isolate VZV-30	HEL	4.61 µM
CCCCCCCCc1cc2cn([C@H]3C[C@H](F)[C@@H](CO)O3)c(=O)nc2o1	-	YS	-	>20 µM
Cc1c(Br)cc(Br)c2ncc(CSCc3ccccc3Cl)n12	plaque count	07/1 (TK-)	HEL	>5 µg/mL
CC1(C)[C@H](CCO)C[C@@H]1n1nnc2c(=O)[nH]cnc21	plaque count	YS (TK+)	-	>50 µg/mL
Nc1nc(N)c2ncn(CCOCP(=O)(O)O)c2n1	cytopathic effect	Oka penciclovir-resistant/B	HEL	11.3 µM
Cc1cn(CCCC(O)CF)c(=O)[nH]c1=O	cytopathic effect	OKA	HEL	>50 µg/mL
Nc1nc2c(ncn2COC(CO)CO)c(=O)[nH]1	cytopathic effect	Oka penciclovir-resistant/B	HEL	0.63 µM
CCCc1ccc(-c2cc3cn(C4CC[C@@H](CO)O4)c(=O)nc3o2)cc1	plaque count	YS (TK+)	HEL	>50 µM
O=C(O)CP(=O)(O)O	plaque count	YS/R (TK-)	HEL	26.4 µM

The first 4 rows once more:

SMILES	method	strain or isolate	cell line	result
Cc1cn([C@@H]2O[C@H](CO)[C@@H](O)[C@@H]2O)c(=O)[nH]c1=O	plaque count	Kawaguchi acyclovir-resistant mutant A8	-	0.0072 µg/mL
O=c1[nH]c(=O)n([C@@H]2O[C@H](CO)[C@@H](O)[C@@H]2O)cc1/C=C/Br	plaque count	YS-W1 H13	HEL	0.0005 µg/mL
C=Cc1cn([C@@H]2O[C@H](CO)[C@@H](O)[C@@H]2O)c(=S)nc1N	plaque count	HOSEN (TK+)	MRC-5	253.8 µM
O=C(O)P(=O)(O)O	cytopathic effect	Clinical isolate VZV-12	HEL	93.6 µM